From patent publication US20260069689A1, “ANTI-SARS-COV-2-SPIKE GLYCOPROTEIN ANTIBODIES AND ANTIGEN-BINDING FRAGMENTS” (Regeneron, published 2026)

Legend:
[1] = target: T1, SARS-COV-2 RBD extracellular domain expressed with a C-terminal mouse IgG2a Fc (SARS-CoV-2); test: Biacore SPR, mAb captured on anti-hFc, 25 C
[2] = target: T1, SARS-COV-2 RBD extracellular domain …; test: Biacore SPR, mAb captured on anti-hFc, 37 C

Row | Binder | RBD mFc dimer bound at 50 nM [1] | RBD mFc dimer bound at 50 nM [2]
1 | mAb15162 (antibody, V domains shown) VH: EVQLVETGGGLIQPGGSLRLSCAASEFIVSRNYMSWVRQAPGKGLEWVSLIYSGGSTYYADSVKGRFTISRDNSKNILYLQMNSLRAEDTAVYYCARDRGGISDYWGQGTLVTVSS VL: DIQMTQSPSSLSASVGDRVTITCQASQDINKYLNWFQQKPGKAPKLLIYDASNLETGVPSRFSGSGSGTDFTFTISSLQPEDIATYYCQQYDNLPRTFGQGTKLEIKR | 354 RU | 323 RU
2 | mAb15156 (antibody, V domains shown) VH: QLQLQESGPGLVKSSETLSLTCTVSASITGSTYYWGWIRQPPGKGLEWIGSIYYSGTTYYKASLKSRVTISVDTSKNQFSLKLTSVTVADTAVYYCVSHLLGNYHKYGMDVWGQGTTVTVSS VL: QSVLTQPPSASGTPGQRVTISCSGSRSNIGINTVNWYQQFPGTALNLLIFSDNQRPSGVPDRFSGSKSGTSASLAISGLQSEDEADYYCAAWDDSLNGPDWVFGGGTKLTVLG | 493 RU | 673 RU
3 | mAb14230 (antibody, V domains shown) VH: EVQLVESGGGLIQPGRSLRLSCAASGFTFDDYAMHWVRQAPGKGLEWVSGISWNSVSIDYADSVKGRFTISRDNAKNSLYLQMTSLTVEDTALYYCAKAFGYETLTGSDYFAYWGPGTLVTVSS VL: EIVLTQSPGTLSLSPGERATLSCRASQTVISTYLAWYQQKPGQSPRLLIYGASSRATGIPDRFSGSGSGTDFTLTISRLEPEDFAVYYCQQYGSSPQLTFGGGTKVEIKR | 241 RU | 295 RU
4 | mAb15158 (antibody, V domains shown) VH: EVQLVESGGGLVQPGGSLRLSCAASGFSFSSNWMSWVRQAPGKGLEWVGNINQDGSEKYYVDSVEGRFTISRDNAKKSLYLQMNSLRAEDTAVYYCARDLGVLWFGDFVDWGQGALVTVSS VL: DIQMTQSPSSLSASVGDRVTITCRASQAISNSLAWYQQKPGKAPKLLLYAASTLESGVPSRFSGSGSGTDYTLTISSLQPEDFATYYCLQYYGSPRTFGQGTKVEIKR | 175 RU | 279 RU
5 | mAb14234 (antibody, V domains shown) VH: QVQLVESGGGVVQPGRSLRLSCAASGFTFSSYGIHWVRQAPGKGLEWVAIIWYDGSEKYYADSVKGRFTISRDNSKNTLFLQMNSLEAEDTAVYYCARGPDLLTGYYNYFYYGMDVWGQGTTVTVSS VL: QSVLTQPPSVSGAPGQRVTISCTGSSSNIGIGYDVHWYQQLPGTVPKLLIYGNTNRPSGVPDRFSGSKSGTSASLAITGLQAEDEADYYCQSYDSSLSSYVFGTGTKVTVLG | 329 RU | 415 RU
6 | mAb14285 (antibody, V domains shown) VH: QVQLVQSGAEVKKPGASVKVSCKASGYTFTGYFIHWVRQAPGQGLEWMGWISPISGGTNYAQKFQGRVTVTRDTSITTAYMELSRLTSDDTAVYHCAREGGTWKGDFDYWGQGTLVTVSS VL: QSALTQPASVSGSPGQSITISCTGTSSDVESYNLVSWYQQHPGKAPKLMIYEGSKRPSGVSNRFSGSKSGNTASLTISGLQAEDEADYYCSSYAGSSTWVFGGGTKLTVLG | 319 RU | 387 RU
7 | mAb15161 (antibody, V domains shown) VH: EVQLVESGGGLVQPGGSLRLSCAASGFTFSSYEMNWVRQAPGKGLEWVSYISSSGSILYYADSVKGRFTASRDNAKNSLYLQMNSLRAEDTGVYYCARREYQLLRPFEFWGQGTLVTVSS VL: not shown | 328 RU | 352 RU
8 | mAb14280 (antibody, V domains shown) VH: QVQLVQSGAEVKKPGASVRVSCKASGYTFTGNYIHWVRQAPGQGLEWMAWINPNSGGKNYAQKFQGRVTLTRDTSVNTAYMELSRLRSDDTAMYYCARDVNYNILTGPGGLWGQGTLVTVSS VL: QSALTQPPSASGSPGQSVTISCTGTSSDVGGYNFVSWYQQHPGKAPKLMIYEVSKRPSGVPDRFSGSKSGNTASLTVSGLQAEDEADYYCSSYAGSNNFVFGTGTKVTVLG | 358 RU | 445 RU
9 | mAb15163 (antibody, V domains shown) VH: EVQLVETGGGLIQPGESLRLSCAASGFIVSTNYMNWVRQAPGKGLEWVSVIYRGGSTYYADSVKGRFTISRDNSKNTLFLQMNSLRAEDTAVYYCARGHEDFDYDTPASGAFDIWGQGTMVTVSS VL: QSALTQPPSASGSPGQSVTISCTGTSSDVGGHNYVSWYQQHPGKAPKVMIYEVSKRPSGVPDRFSGSKSGNTASLTVSGLQAEDEADYYCSSYAGSNKFVFGTGTKVTVLG | 164 RU | 407 RU
10 | mAb15157 (antibody, V domains shown) VH: EVQLVESGGALVQPGGSLRLSCAASGFPFTIYAMTWVRQAPGKGLEWVSVITGSGDSTYYADSVKGRFTISRDNSKNTLYLQMNSLRAEDTAVYYCVKTGEGFFYYYYGMDVWGQGTTVTVSS VL: QSVLTQPPSVSAAPGQKVTISCSGSSSNIGNSYISWYQQLPGTAPKLLIYVNNKRPSGIPDRFSGSKSGTSATLGITGLQTGDEADYYCGTWDSSLSAGVFGSGTKVTVLG | 294 RU | 412 RU
11 | mAb14281 (antibody, V domains shown) VH: QVQLVQSGADVKKPGASVKVSCKTSGYIFTGYYIHWVRQAPGQGLEWMGWINPNSGGTNSAQKFQGRVTMTRDTSISTVYMELSRLRSDDTAVYYCAKSNSFSVLDYNFDYWGQGTLVTVSS VL: SSELTQDPAVSVALGQTVRITCQGDSLRSYYASWYQQKPGQAPVLVIYDKNNRPSGIPDRFSGSSSGNTASLTITGAQAEDEADYYCNSRDSSRNHLVVFGGGTKLTVLG | 305 RU | 370 RU
12 | mAb15159 (antibody, V domains shown) VH: EVQLVESGGGLVQPGGSLRLSCAASGITVSSNYMTWVRQAPGKGLEWVSLIYSGGSTFYADSVRGRFTISRDNSKNTLYLQMNSLRAEDTAVYYCARDLVVYGMDVWGQGTTVTVSS VL: DIQLTQSPSSLSASVGDRVTITCRASQGISSYLAWYQQKPGKAPKLLIYAASTLQSGVPSRFSGSGSGTDFTLTISSLQPEDFATYYCQHLNSDPHTFGQGTKLEIKR | 224 RU | 315 RU
13 | mAb15160 (antibody, V domains shown) VH: EVQLVESGGGLVQPGGSLRLSCSASGFTFSRYAMYWVRQAPGKGLEYVSAISSDGGSTYDADSVKGRFTISRANSKNTLYLQMSSLRAEDTAVYYCVKGLRELLYYYYGMDVWGQGTTVTVSS VL: DIQMTQSPSSLSASVGDRVTITCRAGQSISSFLNWYQQKPGKAPKLLIYAASSLQSGVPSRFSGSGSGTDFTLTISSLQPEDFATYYCQQSYITPFTFGPGTKVDIKR | 268 RU | 440 RU
14 | mAb14292 (antibody, V domains shown) VH: EVQLVESGGGLVQPGGSLRLSCVASGFAFSTYEMNWVRQAPGKGLEWVSYISSSGSTIYYADSVKGRLTISRDNVKNSLYLQMNSLRVEDTAIYYCARDAIRNNDILTDPATFDPWGQGTLVTVSS VL: not shown | 76.8 RU | 97.9 RU
15 | mAb14282 (antibody, V domains shown) VH: QVQLVQSGAEVKKPGASVKVSCKASGYIFTDHYMHWVRQAPGQGLEWMGWINPNSGATNYAQNFQGRVTMTRDTSIITVYMELSRLRSDDTAVYYCARDSSPYMIRYTMDVWGQGTTITVSS VL: QSALTQPASVSGSPGQSITISCTGTSSDVGSYNLVSWYQQHPGKAPKLMIYELTKRPSGVSNRFSGSKSGNTASLTISGLQAEDEADYYCSSYRGSVTDVVFGGGTKLTVLG | 326 RU | 394 RU
